Measured values: article PMC7414093 (Proceedings of the National Academy of Sciences of the …, 2020)

Test: general procedure: Fmoc solid-phase peptide synthesis; 2-chlorotrityl chloride resin; HBTU, HOBt, DIPEA (lactam cyclization)
Conditions: conjugation step

P7-TAMRA probe
conjugation yield: 95% yield
